Results: patent publication US20260382604A1, “Inhibitors of Type 1 Methionyl-tRNA Synthetase and Methods of Using Them” (published 2026)
Values joined by “and” are separate entries in the source; they are usually repeats but may differ in a detail not shown here. Equal entries are not always repeated.

Legend:
T. cruzi [1] = experiment: T. cruzi growth inhibition assay; conditions: read-out: In Vitro EC50; anti-T. cruzi activity in vitro (Table 3)
Description: Trypanosoma crud growth inhibition assay: The Tulahuen strain of T. cruzi that expresses the Escherichia coli 3-galactosidase gene was utilized (PMID: 8913471). Mammalian stages of parasites were grown at 37 °C on monolayers of murine 3T3 fibroblasts in RPMI 1640 (Biowhittaker Inc., Walkersville, Md.) with 10% fetal bovine serum, penicillin, streptomycin, and glutamine. Growth inhibition assays were performed in 96-well tissue culture plates (Costar, Cambridge, Mass.). First, 3T3 fibroblasts were inoculated at 103/well using RPMI 1640 without phenol red (Biowhittaker Inc.) plus 10% fetal bovine serum and glutamine. The next day, the plates were infected with T. cruzi trypomastigotes at 104/well. After 4 h, drugs were added in serial dilutions to give a final volume of 200 μl/well. The plates were incubated at 37 °C in 5% CO2 atmosphere for 6 days. At this time. CPRG (100 μM final) and Nonidet P-40 (0.1% final) (Sigma Chemical Co., St. Louis, Mo.) were added and the plates were incubated at 37 °C for approximately 4 h. Wells with 0-galactosidase activity turned the media from yellow to red, and this was quantified on an enzyme-linked immunosorbent assay reader at A570.

S. pyogenes [2] = experiment: Serum shift MIC, S. pyogenes; conditions: serum shift procedure, with serum (50% human serum)
Description: (§1) Media and culture conditions. Mueller Hinton broth (MHB), cation adjusted Mueller Hinton broth (CA-MHB), Todd Hewitt Broth (THB) and Brain Heart Infusion broth (BHI) were purchased from Becton Dickinson (Franklin Lakes, NJ). Tryptic soy agar (TSA) plates and TSA with 5% sheep blood plates were purchased from Remel (San Diego, CA). MHB was used to assay all Staphylococcus aureus strains. CA-MHB was used for Staphylococcus epidermidis, Enterococcus faecalis, Enterococcus faecium, Escherichia coil, and Pseudomonas aeruginosa. THB broth supplemented with 1% yeast extract was used for Streptococcus pneumoniae and Streptococcus pyogenes. Staphylococcus. Enterococcus, Escherichia, and Pseudomonas strains were cultured at 37 °C with ambient air. Streptococcus strains were cultured in 37 °C with 5% CO2. Separate conditions for radiolabeled precursor uptake assays are described below.
(§2) Susceptibility testing: Minimum inhibitory concentration (MIC) determinations are performed in triplicate in 96-well round bottom microtiter plates (Corning, Corning NY) as described by the Clinical and Laboratory Standards Institute (CLSI). Serial two-fold dilutions of compounds are added to plates in 50 μL volumes. An additional 50 μL of media containing bacterial cells (1×10^6 CFUs/mL) is then added to each well. Maximum DMSO concentrations are 0.5%. Plates are incubated at 37 °C for at least 18 h before reading the susceptibility result by optical absorbance (OD600) using a BioTek ELx800. The lowest concentration causing ≥90% growth inhibition compared to the untreated control is recorded as the MIC (and also corresponded to the visual MIC). MICs are measured at least twice and the higher value (if different) is recorded herein.
(§3) Serum shift assays: To assess the role of protein binding on compound susceptibility, MIC determinations are performed in triplicate in the presence and absence of 50% human serum. Serial threefold dilutions of 2× compound are generated in MHB or THY (depending on organism) and aliquoted onto 96 well plates with a DMSO limit of 0.5%. Bacteria are adjusted to 1*10^8 CFUs/mL in media, then further diluted 1:100 in media and 100% heat deactivated filter sterilized pooled human serum. Fifty microliters are added to each well of the corresponding plates, and the plates are incubated at 37 °C for ~20 h. The lowest concentration causing ≥90% growth inhibition is recorded as the MIC.

[3] = tested on: S. aureus (MRSA strain AH4827); experiment: Murine thigh infection model (neutropenic, luminescent MRSA)
Description: Murine thigh infection model. Animal studies are approved by the Institutional Animal Care and Use Committee at the University of Washington, Seattle. Female specific pathogen free CD1 mice are obtained from Charles River (Wilmington. MA) weighing 23-27 grams and allowed at least 3 days to acclimate prior to study. Mice had access to food and water ad libitum. Neutropenia is induced by administering cyclophosphamide monohydrate (Sigma Aldrich C7397; St. Louis, MO) via IP injection 4 days (at 150 mg/kg) and 1 day (at 100 mg/kg) prior to infection. Neutropenic status is confirmed by neutrophil count <100 cells/mm^3.
Overnight culture of luminescent MRSA (strain AH4827 is diluted 1:100 in MHB and incubated until reaching mid-log phase (OD600<0.750). The inoculum is prepared by pelleting log-phase culture and re-suspending in sterile dPBS. The culture is adjusted to OD600 of 0.200 and diluted 1:100 in sterile dPBS correlating to an inoculum of ~2*10^5 CFU/100 μL. The mice are infected by an intramuscular injection of 100 μL in the right posterior thigh while under isoflurane gas anesthesia. At 1 h post infection, one control group is sacrificed for determination of initial inoculum (status level of infection) after all mice are imaged by IVIS to confirm infection. Mice are dosed at 2 and 14 h post-infection or 2, 10, and 18 h post-infection with test compounds (below); they received a SC dose of 5 mg/kg ketoprofen at 2 h post-infection for pain management. Mice are imaged by IVIS at 24 h post-infection then sacrificed; the thigh muscle is sterilely removed, weighed, homogenized in 5 mLs dPBS, serially diluted, plated on tryptic soy agar in duplicate, and incubated overnight at 37 °C. Colonies are counted to quantify the bacterial load in CFUs per gram of thigh tissue.
Linezolid as positive control is administered 50 mg/kg PO according to dosing regimen used for experimental compounds.
Test compounds and linezolid control are administered PO (orally) or SC (by subcutaneous injection) in 200 μL of vehicle containing 7% Tween80, 5% DMSO, 3% EtOH in saline.

T. cruzi [4] = experiment: In vivo acute T. cruzi infection model; conditions: for Log decrease from vehicle: PO, dose 50, 2 times/day, 5 days of treatment
Description: In vivo acute T crud infection model. Swiss Webster mice were infected with 2×10^4 Trypanosoma cruzi trypomastigotes expressing a red-shifted luciferase gene IP on day zero (M. D. Lewis et al. J Biomol Screen 2015; 20(1):36-43). Mice were dosed orally with the test compounds, vehicle, or the control drug (benznidazole) for 5 days (days 7-11 post-infection). The parasites were imaged and quantified using an IVIS imaging system at multiple time points. The substrate D-luciferin potassium salt was injected SC at 150 mg/kg into mice, followed by imaging 10-15 minutes post injection. Images were taken for each set of mice both dorsally and ventrally. Auto-exposure settings are used with a maximum exposure time set to 5 minutes. The signal from these images is combined and standardized by converting the readouts to radiance (photons/sec/cm^2/sr). The decrease in luminescence compared to vehicle control was quantified on day 13 post-infection.

S. aureus [5] = experiment: Serum shift MIC, S. aureus; conditions: serum shift procedure, with serum (50% human serum)
Description: as §1, §2, §3

MRSA = experiment: Susceptibility testing (MIC), MRSA
Description: as §1, §2

T. brucei = experiment: Trypanosoma brucei growth inhibition assay; conditions: read-out: T. brucei EC50; in vitro growth inhibition
Description: Trypanosoma brucei growth inhibition assay: Compounds are tested for anti-trypanosomal activity against Trypanosoma brucei cells (BSF 427 parasites) in HMI-9 media containing 10% heat inactivated FBS 100 U mL^−1 penicillin/100 μg mL^−1 streptomycin at 37 °C with 5% CO2. Test compounds are assayed in a 96-well format in triplicate with serial 3-fold dilutions of compound or a pentamidine control against an initial inoculum of 10 000 cells/well and quantified at 48 hours with Alamar Blue (Invitrogen, Waltham, MA).

S. pyogenes [6] = experiment: Susceptibility testing (MIC), S. pyogenes; conditions: ATCC19615
Description: as §1, §2

S. aureus [7] = experiment: Susceptibility testing (MIC), S. aureus; conditions: ATCC29213
Description: as §1, §2

MRSA strain (ATCC 33591) = experiment: Time-kill synergy assay with fusidic acid; conditions: combination of 2541 and fusidic acid compared to the drugs by themselves; 24 hr; 0.25× and 0.125×MIC
Description: Methods for Time-kill synergy assays: 2541 and fusidic acid were tested against MRSA strain (ATCC 33591). Combination solutions were made by adding both compounds from DMSO stocks into 5 ml of CA-MHB at 0.25×, and 0.125× the MIC concentration of the compounds respectively. Individual test solutions were also made for each compound at 0.25×, and 0.125× their MIC concentrations. All of the test solutions were made in 12 ml snap cap falcon tubes and were vortexed for a minute to ensure the compound was fully mixed. The test organism was then taken from a fresh overnight culture and added to each tube at a starting OD of 0.04. which is equivalent to 1×10^3 CFU/ml. A no drug control was also started at this time by adding the test organism to 5 ml of CA-MHB that at the same starting concentration. Tubes were incubated at 37 °C on a shaker, 200 uL samples of the test solutions were taken at 0, 1, 3, 5, 7, and 24 hours after the bacteria was added and the OD600 reading was recorded at these times. At each of these time points the 200 ul sample was also plated in serial 10 dilutions on fresh TSA plates. The plates were incubated at 37 °C for 18 hours and then the colonies were counted to determine the CFU/ml at each of the time points.

Structure (SMILES) | EC50 (T. cruzi [1]) [nM] | S. pyogenes MIC w serum (S. pyogenes [2]) [mg/L] | Log decrease from vehicle (T. cruzi [4]) | S. aureus MIC w Serum (S. aureus [5]) [mg/L] | Log decrease from vehicle ([3]; PO, dose 50, 3 times/day) | MRSA (ATCC33591) MIC (MRSA) | S. aureus (ATCC29213) MIC (S. aureus [7]) [mg/L] | other results
COc1cc(Cl)c(-c2cccc3nc(Cc4nc5nc(Cl)ccc5[nH]4)cn23)cc1OC | 11 | 8 | 1.32 | 1 | – | – | – | Log decrease from vehicle ([3]; PO, dose 75, 2 times/day): 1; Log decrease from vehicle ([3]; SC, dose 25, 3 times/day): 0.5
COc1cc(Cl)c(-c2nccc3nc(Cc4nc5nc(Cl)ccc5[nH]4)cn23)cc1OC | – | 16 | – | 1.5 | 1.1 | – | – | –
COc1cc(Cl)c(-c2cnc(N3C4CCC3COC4)c3nn(Cc4nc5ccc(Cl)nc5[nH]4)cc23)cc1OC | – | 16 | – | 4 | 0.5 | 0.212 mg/L | 0.221 | EC50 (T. brucei): < 0.91 nM; S. pyogenes (ATCC19615) MIC (S. pyogenes [6]): 0.272 mg/L
COc1cc(Cl)c(-c2cccc3nc(Cc4nc5nc(F)ccc5[nH]4)cn23)cc1OC | – | 16 | – | 1 | – | – | – | Log decrease from vehicle ([3]; PO, dose 75, 2 times/day): 1
COc1cc(Cl)c(-c2cncc3nc(Cc4nc5nc(Cl)ccc5[nH]4)cn23)cc1OC | 7.5 | 9.9 | 1.21 | 1.2 | – | – | – | –
COc1cc(Cl)c(-c2cnc(N3CCNC(=O)C3)c3nn(Cc4nc5nc(Cl)ccc5[nH]4)cc23)cc1OC | – | 4 | – | 3 | – | 0.0414 mg/L and 0.0608 mg/L | 0.224 | Log decrease from vehicle ([3]; SC, dose 25, 3 times/day): 0.3
COc1cc(Cl)c(-c2cnc(N3CCNC(=O)C3)c3nc(Cc4nc5ccc(Cl)nc5[nH]4)cn23)cc1OC | – | 1 | – | 1 | – | – | – | Log decrease from vehicle ([3]; SC, dose 50, 3 times/day): 0.4
COc1cc(Cl)c(-c2c(F)ncc3nc(Cc4nc5nc(Cl)ccc5[nH]4)cn23)cc1OC | 14 | 2 | 2.94 and 3.05 | 1 | 4.5 | – | – | Log decrease from vehicle ([3]; PO, dose 25, 3 times/day): 3.6; Log decrease from vehicle ([3]; SC, dose 50, 3 times/day): 4.0; in vivo efficacy (in words) ([3]; compared to other non-fluorinated analog compounds): useful in vivo efficacy; in vivo efficacy (in words) (T. cruzi [4]; compared to non-fluorinated analogs such as 2503 and 2602): useful in vivo efficacy; decrease in CFU counts (MRSA strain (ATCC 33591)): > 2 log units
COc1cc(Cl)c(-c2cnc(N3CC(C)NC(C)C3)c3nn(Cc4nc5ccc(Cl)nc5[nH]4)cc23)cc1OC (stereo not drawn) | – | 2 | – | 1 | – | 0.679 mg/L | 0.446 | Log decrease from vehicle ([3]; route not given, dose 50, 3 times/day): 1.1; EC50 (T. brucei): 0.91 nM; S. pyogenes (ATCC19615) MIC (S. pyogenes [6]): 0.119 mg/L
